The text below walks through data of PMC9618136.

The target of experiment [1] is OsExo70F3, N-terminally truncated, purified (rice). The experiment can be described thus: ITC. Conditions: domain or fragment.
For experiment [2] the target is unchanged. The experiment can be described thus: ITC. The conditions noted are these: domain or fragment. This is another data set of the same source.

The Kd is the equilibrium constant for the complex coming apart. Low values mean tighter binding, high ones weaker binding.

In the case of “AVR-Pii effector domain (residues 20 to 70), purified”, the Kd in experiment [1] is 4.19 nM; in experiment [2], 2.79 nM.
